A mixed list of measured activities; the numbers were collected in NIAID ChemDB.

All rows: target-level tests; species: HIV-1; protein: Protease; read-out: inhibition

Percent inhibition refers to the dose given; in toxicity tests it is the harm to the cells. An empty or dashed field is not shown. Neighbouring rows are from separate reports.

compound	method	dose	result
CC(C[C@@H](OC(=O)CC(C)(C)C(=O)O)[C@H](OC(=O)CC(C)(C)C(=O)O)C(C)(C)O)[C@@H]1CC[C@]2(C)C3=CCC4C(C)(C)C(OC(=O)CC(C)(C)C(=O)O)CC[C@]4(C)C3CC[C@@]12C	substrate cleavage / fluorescence	100 µg/mL	62%
CN1CCN(C(=O)[C@@H]2O[C@@H]3CN(Cc4ccccc4)C(=O)[C@H]2O3)CC1	FRET	1 µM	55%
CC[C@@H](C)[C@H](NC(=O)CN(CC1CCCCC1)C(=O)[C@@H](O)[C@H](Cc1ccccc1)NC(=O)[C@H](CC(N)=O)NC(=O)OC(C)(C)C)C(=O)NCC1CCCCC1	-	1000 µM	14.4%
CC(=O)O[C@H](CC(C)[C@@H]1CC[C@]2(C)C3=CCC4C(C)(C)C(=O)CC[C@]4(C)C3CC[C@@]12C)[C@H](OC(C)=O)C(C)(C)OC(C)=O	substrate cleavage / fluorescence	100 µg/mL	35.5%
CCC(C)C(NC(=O)C1CCCN1C(=O)C(=O)N1CCCC1C(=O)NC(C(=O)NC(C(=O)OC)C(C)C)C(C)CC)C(=O)NC(C(=O)OC)C(C)C	absorbance	10 µM	<10%
CC(C[C@@H](OC(C)(C)C)[C@H](O)C(C)(C)O)[C@@H]1CC[C@]2(C)C3=CCC4C(C)(C)C(=O)C(O)=C[C@]4(C)C3CC[C@@]12C	substrate cleavage / fluorescence	100 µg/mL	43.7%
CC(C)C[C@H](NC(=O)[C@@H]1CCCN1C(=O)[C@@H](O)[C@H](Cc1ccccc1)NC(=O)[C@H](CC(N)=O)NC(=O)CCc1ccccc1)C(=O)N[C@H](C(N)=O)C(C)C	-	5 µM	51.8%
CC(C)[C@H](NC(=O)CCCCCC(=O)N[C@H](C(=O)OCc1ccccc1)C(C)C)C(=O)OCc1ccccc1	absorbance	10 µM	<10%
COc1cc2c(c(O)c1OC)-c1c(cc3c(c1OC)OCO3)[C@H](OC(C)=O)[C@H](C)[C@H](C)C2	HPLC	100 µg/mL	12.8%
CCCC1(CCC)OC(=O)C(C(c2cccc(N)c2)C2CC2)=C1O	fluorescence	3.3 µM	100%
CCOC(=O)[C@@]1(C)CC[C@]2(C)CC[C@]3(C)C(=CC(=O)[C@@H]4[C@@]5(C)CC/C(=N\OCc6ccccc6Cl)C(C)(C)[C@@H]5CC[C@]43C)[C@@H]2C1	substrate cleavage / fluorescence	1000 µg/mL	21.5%
CCCC1(Cc2ccccc2)OC(=O)C(C(c2ccccc2)C2CC2)=C1O	fluorescence	3.3 µM	100%
CCOC(=O)[C@@]1(C)CC[C@]2(C)CC[C@]3(C)C(=CC(=O)[C@@H]4[C@@]5(C)CC/C(=N\OCc6cccc(C#N)c6)C(C)(C)[C@@H]5CC[C@]43C)[C@@H]2C1	substrate cleavage / fluorescence	1000 µg/mL	28.1%
CC(C[C@@H](OC(=O)CC(C)(C)C(=O)O)[C@H](OC(=O)CC(C)(C)C(=O)O)C(C)(C)O)[C@@H]1CC[C@]2(C)C3=CCC4C(C)(C)C(=O)CC[C@]4(C)C3CC[C@@]12C	substrate cleavage / fluorescence	100 µg/mL	49.8%
CC(=O)NC(C(=O)NC[C@H]1O[C@@H](Oc2ccccc2)[C@H](O)[C@@H](OCc2ccccc2)[C@@H]1OCC(C)C)C(C)C	-	100 µM	16%
O=C(NCCc1ccccc1)[C@@H]1O[C@]2(c3ccccc3)CN(C(c3ccccc3)c3ccccc3)C(=O)[C@H]1O2	FRET	10 µM	0%
CCOC(=O)[C@H](CC(C)C)NC(=O)[C@H](Cc1ccccc1)NC(=O)[C@@H](O)[C@H](Cc1ccccc1)NC(=O)OC(C)(C)C	HPLC	27 µM	0%
CC(C)COC(=O)[C@H](Cc1ccccc1)NC(=O)C(N)C(=O)N[C@@H](Cc1ccccc1)C(=O)OCC(C)C	absorbance	10 µM	<10%
CC(C[C@@H](OC(=O)CC(C)(C)CC(=O)O)[C@H](OC(=O)CC(C)(C)CC(=O)O)C(C)(C)O)[C@@H]1CC[C@]2(C)C3=CCC4C(C)(C)C(=O)CC[C@]4(C)C3CC[C@@]12C	substrate cleavage / fluorescence	100 µg/mL	46.5%
CC(C)(C)NC(=O)[C@@H]1C[C@H](c2ccccc2)CN1C(=O)[C@@H](O)[C@H](Cc1ccccc1)NC(=O)[C@H](CC(N)=O)NC(=O)OCc1ccccc1	-	0.05 µM	4%
CCOC(=O)[C@@]1(C)CC[C@]2(C)CC[C@]3(C)C(=CC(=O)[C@@H]4[C@@]5(C)CC/C(=N\OCc6cccc(Cl)c6)C(C)(C)[C@@H]5CC[C@]43C)[C@@H]2C1	substrate cleavage / fluorescence	1000 µg/mL	12.4%
CC(C)[C@H](NC(=O)[C@@H]1CCCN1C(=O)[C@@H](O)[C@H](Cc1ccccc1)NC(=O)[C@H](CC(N)=O)NC(=O)OCc1ccccc1)C(=O)NCC1CCCCC1	-	5 µM	96%
CC(C)COC(=O)[C@H](Cc1ccccc1)NC(=O)C(=O)N[C@@H](Cc1ccccc1)C(=O)OCC(C)C	absorbance	10 µM	40%
CC(=O)NC(C(=O)NC[C@H]1O[C@@H](Oc2ccccc2)[C@H](O)[C@@H](OCc2ccccc2)[C@@H]1O)C(C)C	-	100 µM	14%
CC[C@@H](C)[C@H](NC(=O)C1CCCN1C(=O)[C@@H](OC)[C@H](Cc1ccccc1)NC(=O)[C@H](CC(N)=O)NC(=O)CCc1ccccc1)C(=O)N[C@H](C(N)=O)C(C)C	-	5 µM	4.5%
CC(C)COC(=O)[C@H](Cc1ccccc1)NC(=O)/C=C/C(=O)N[C@@H](Cc1ccccc1)C(=O)OCC(C)C	absorbance	10 µM	<10%
CO[C@H]1[C@H](OCc2ccccc2)[C@@H](O)[C@H](Oc2ccccc2)O[C@@H]1CNC(=O)[C@@H](NC(=O)OC(C)(C)C)C(C)C	-	100 µM	11%
CCOC(=O)C1CCN(C(=O)[C@@H]2O[C@H]3O[C@@H]2C(=O)N(Cc2ccccc2)[C@H]3Cc2ccccc2)CC1	FRET	10 µM	0%
CCCCC1(CCCc2ccccc2)OC(=O)C(C(c2ccccc2)C2CC2)=C1O	fluorescence	3.3 µM	100%
CN1CCN(C(=O)[C@@H]2O[C@H]3O[C@@H]2C(=O)N(Cc2ccccc2)[C@@H]3Cc2ccccc2)CC1	FRET	10 µM	80%
CCOC(=O)[C@@]1(C)CC[C@]2(C)CC[C@]3(C)C(=CC(=O)[C@@H]4[C@@]5(C)CC/C(=N\OCc6cccc7ccccc67)C(C)(C)[C@@H]5CC[C@]43C)[C@@H]2C1	substrate cleavage / fluorescence	1000 µg/mL	26.6%
CC(C)[C@H](N)C(=O)N[C@H](C(=O)N[C@@H](Cc1ccccc1)[C@H](O)C(=O)N[C@@H](Cc1ccccc1)C(=O)N[C@H](C(=O)N[C@H](C(N)=O)C(C)C)C(C)C)C(C)C	-	1000 µM	94.9%
CCOC(=O)[C@@]1(C)CC[C@]2(C)CC[C@]3(C)C(=CC(=O)[C@@H]4[C@@]5(C)CC/C(=N\OCc6ccsc6)C(C)(C)[C@@H]5CC[C@]43C)[C@@H]2C1	substrate cleavage / fluorescence	1000 µg/mL	76%
COc1cc2c(c(O)c1OC)-c1c(cc3c(c1OC)OCO3)[C@H](OC(=O)/C=C/c1ccccc1)[C@H](C)[C@H](C)C2	HPLC	100 µg/mL	77.8%
CCCC1(Cc2ccccc2)OC(=O)C(C(c2cccc(NS(=O)(=O)c3ccc(C#N)cc3)c2)C(C)C)=C1O	fluorescence	3.3 µM	100%
CCOC(=O)[C@@]1(C)CC[C@]2(C)CC[C@]3(C)C(=CC(=O)[C@@H]4[C@@]5(C)CC/C(=N\OCc6ccc(F)cc6)C(C)(C)[C@@H]5CC[C@]43C)[C@@H]2C1	substrate cleavage / fluorescence	1000 µg/mL	53.6%

5 of the rows above, restated:

compound | method | dose | result
CCCCC1(CCCc2ccccc2)OC(=O)C(C(c2ccccc2)C2CC2)=C1O | fluorescence | 3.3 µM | 100%
CCOC(=O)[C@@]1(C)CC[C@]2(C)CC[C@]3(C)C(=CC(=O)[C@@H]4[C@@]5(C)CC/C(=N\OCc6ccccc6Cl)C(C)(C)[C@@H]5CC[C@]43C)[C@@H]2C1 | substrate cleavage / fluorescence | 1000 µg/mL | 21.5%
CC(C)COC(=O)[C@H](Cc1ccccc1)NC(=O)C(=O)N[C@@H](Cc1ccccc1)C(=O)OCC(C)C | absorbance | 10 µM | 40%
CC(C)C[C@H](NC(=O)[C@@H]1CCCN1C(=O)[C@@H](O)[C@H](Cc1ccccc1)NC(=O)[C@H](CC(N)=O)NC(=O)CCc1ccccc1)C(=O)N[C@H](C(N)=O)C(C)C | - | 5 µM | 51.8%
CC(C[C@@H](OC(=O)CC(C)(C)CC(=O)O)[C@H](OC(=O)CC(C)(C)CC(=O)O)C(C)(C)O)[C@@H]1CC[C@]2(C)C3=CCC4C(C)(C)C(=O)CC[C@]4(C)C3CC[C@@]12C | substrate cleavage / fluorescence | 100 µg/mL | 46.5%